Measured values from several laboratories, pooled; numbers as filed in NIAID ChemDB.

All rows: growth or infection tests; organism: Rhinovirus

Blank or dashed fields: not listed here. Neighbouring rows are from separate reports. A number after MIC or MFC names an inhibition level or a share of isolates. ECn: concentration that inhibits the pathogen or its effect by n%.

| compound | cells | method | strain | endpoint | value |
|---|---|---|---|---|---|
| CC(=O)c1ccc(Oc2ccc(C#N)cn2)cc1 | HeLa | cytopathic effect | TYPE 2 | EC50 | 210 µM |
| COc1c(-c2ccc(C3=NCCO3)cc2)oc2ccccc2c1=O | OHIO HELA | plaque count | TYPE 1B | EC50 | 14.05 µM |
| CCOC(=O)c1ccc(OCCC2CCN(c3ccc(C)nn3)CC2)cc1 | HELA-OHIO | cytopathic effect | Serotype 42 (group A) | EC50 | >19 µM |
| O=C(O)c1ccc(-c2oc3ccc(Cl)cc3c(=O)c2O)cc1 | OHIO HELA | plaque count | TYPE 1B | EC50 | 8.68 µM |
| Clc1ccc(C2CCc3ccccc3O2)c(Cl)c1 | HeLa | plaque count | TYPE 1B | EC50 | 0.025 µM |
| CC(C)Oc1ccccc1NC(=O)Nc1ccc2cnccc2n1 |  | plaque count |  | EC50 | 1 µg/mL |
| O=c1c(Cc2ccc(O)cc2)coc2ccccc12 | HeLa | plaque count | TYPE 1B | EC50 | >25 µM |
| N#Cc1ccc(C2=Cc3cc(C#N)ccc3OC2)cc1 | HeLa | cytopathic effect | Serotype 1B | EC50 | >8 µM |
| C#CC[C@@H](C(=O)N[C@H](/C=C/C(=O)OC(C)C)C[C@@H]1CCNC1=O)n1cccc(NC(=O)c2cc(C)on2)c1=O |  |  | Serotype 39 | EC50 | >10 µM |
| COC(=O)[C@H](Cc1cccc2ccccc12)Nc1nc2ccc(NC(=O)OC(C)(C)C)c(C)c2c(=O)o1 | H1-HELA | XTT | Serotype 1A | EC50 | 0.3 µM |
| O=P1(O)OCC2O[C@@H](n3cnc4c(SCc5ccccc5)ncnc43)[C@H](O)C2O1 |  |  | TYPE 1A | MIC | 10 µg/mL |
| CS(=O)(=O)CCCN1C(=O)c2ccccc2C(CC(=O)c2ccccc2)C1=O | HeLa | plaque count | Serotype 14 | EC50 | 22.1 µM |
| O=C1/C(=C/c2ccc(Cl)cc2)COc2cc(Cl)cc(Cl)c21 | HeLa | plaque count | TYPE 14 | EC50 | >6.25 µM |
| Cc1ccc(C(=O)CCCCOc2ccc(C3=NCCO3)cc2)cc1 |  |  | serotype 1A 1B 2 6 14 15 21 22 25 29 30 41 42 45 59 63 67 70 72 86 89 | MIC80 | >296 µM |
| CCOC(=O)/C=C/[C@H](C[C@@H]1CCNC1=O)NC(=O)Nc1cccc2ccccc12 | H1-HELA | XTT | Serotype 14 | EC50 | >10 µM |
| Cc1cc(CCCCCOc2c(C)cc(-c3nnc(C)o3)cc2C)on1 | HeLa | plaque count | serotype 2 1A 1B 6 14 21 22 15 25 30 50 67 89 86 41 | EC50 | 0.053 µg/mL |
| O=c1c(Cc2ccc(Cl)cc2)coc2ccccc12 | HeLa | plaque count | TYPE 14 | EC50 | >25 µM |
| C=CCO/N=C/c1cc(C)c(OCCCc2cc(C)no2)c(C)c1 | KB | cytopathic effect / visual reading | TYPE 1A | EC50 | <0.16 µg/mL |
| CSc1ncnc2c1ncn2[C@@H]1OC2COP(=O)(O)OC2[C@H]1O |  |  | TYPE 13 | MIC | 3.2 µg/mL |
| Cc1ccc(C(=O)CCCCOc2ccc(C3=NCCO3)cc2)cc1C |  |  | serotype 1A 1B 2 6 14 15 21 22 25 29 30 41 42 45 59 63 67 70 72 86 89 | MIC80 | >285 µM |
| Fc1cccc(Cn2cnc3c(Nc4cccc(F)c4)nc(C(F)(F)F)nc32)c1 | M-HELA | plaque count | Serotype 8 | EC50 | 3.7 µM |
| CCCc1cc(CCCOc2c(C)cc(-c3nnc(C)o3)cc2C)on1 | HeLa | plaque count | serotype 2 1A 1B 6 14 21 22 15 25 30 50 67 89 86 41 | EC50 | 0.036 µg/mL |
| CCOC(=O)c1ccc(OCCCCOc2ccc(-c3snc(SC)c3C#N)cc2)cc1 | HELA-OHIO | cytopathic effect | Serotype 45 (group A) | EC50 | >2 µM |
| COc1ccc(-n2c(-c3ccccc3)c(C)c(=O)c3cc(C(C)C)ccc32)cc1 | HELA-OHIO | cytopathic effect | TYPE 1B/B632 | EC50 | >2.5 µg/mL |
| COCc1cc(CCCOc2c(Cl)cc(-c3noc(C)n3)cc2Cl)on1 | HeLa | cytopathic effect | Serotype 2 | EC50 | 0.01 µg/mL |
| Cc1c(-c2ccccc2)n(-c2ccc(F)cc2)c2ccc(C(C)C)cc2c1=O | HELA-OHIO | cytopathic effect | 31/41F | EC50 | 0.088 µg/mL |
| Cc1cc(CCCCCCCOc2ccc(C3=NCCO3)cc2)on1 | HeLa | cytopathic effect | Serotype 2 | EC50 | 2.3 µM |
| Nc1ccn([C@@H]2C[C@H](CO)[C@@H](O)[C@H]2O)c(=O)n1 | WI-38 | cytopathic effect | TYPE 1A | EC50 | >100 µg/mL |
| O=C1c2cc(Cl)ccc2OCC1Cc1ccc(Cl)cc1 | HeLa | plaque count | TYPE 14 | EC50 | 13.54 µM |
| CS(=O)(=O)c1ccc(Oc2ccc(Cl)c(Cl)c2)nc1 |  | cytopathic effect | TYPE 1A | EC50 | 0.94 µM |
| CCOC(=O)/C=C/[C@H](CCC(N)=O)NC(=O)[C@H](Cc1ccccc1)n1ccc(C)c(NC(=O)c2cc(C)on2)c1=O | HeLa | XTT | 14 | EC50 | >0.016 µM |
| CO/N=C/c1cccc(OCCC2CCN(c3ccc(Cl)nn3)CC2)c1 | KB | cytopathic effect / visual reading | TYPE 1A | EC50 | <0.0032 µg/mL |
| CCOC(=O)/C=C/[C@H](C[C@@H]1CCNC1=O)NC(=O)Nc1cc(OC)cc(OC)c1 | H1-HELA |  | Serotype 14 | EC50 | >10 µM |
| CCOC(=O)c1ccc(OCCCCC(=O)c2ccccc2)cc1 |  |  | serotype 1A 1B 2 6 14 15 21 22 25 29 30 41 42 45 59 63 67 70 72 86 89 | MIC80 | >306 µM |
| N=C(N)c1ccc2c(c1)CC(c1ccccc1)CO2 | HeLa | plaque count | Serotype 1B | EC50 | 8 µM |
| C#CCOc1cc(OC)ccc1-c1cc(N(CC)CC)no1 | HeLa | cytopathic effect | Serotype 42 (group A) | EC50 | >40 µM |
| CCOC(=O)c1ccc(OCCOc2ccc(-c3snc(SC)c3C#N)cc2)cc1 | HELA-OHIO | cytopathic effect | Serotype 41 (group B) | EC50 | >2 µM |
| CSCCCN1C(=O)Cc2ccccc2C1=O | HeLa | plaque count | Serotype 14 | EC50 | 19.6 µM |
| CCOC(=O)c1ccc(OCCC2CCN(c3ccc(C)nn3)CC2)cc1 | KB | neutral red | 1059 (ICAM-1 receptor group 14) | EC50 | 0.027 µM |
| CON[C@@H](Cc1ccccc1)C(=O)C(=O)/C=C/[C@H](CCC(N)=O)NC(=O)OCc1ccccc1 | HeLa | plaque count | TYPE 14 | EC50 | 3.2 µg/mL |
| CSc1nsc(-c2ccc(OCCCCOc3ccccc3)cc2)c1C#N | HELA-OHIO | cytopathic effect | Serotype 59 (group B) | EC50 | >20 µM |
| C=CCO/N=C/c1ccc(OCCCCN2CCN(c3ccc(Cl)nn3)CC2)cc1 | KB | cytopathic effect / visual reading | TYPE 1A | EC50 | 0.02 µg/mL |
| CN=C(c1ccccc1)c1ccc2nc(N)n(S(=O)(=O)C(C)C)c2c1 | HeLa | cytopathic effect / XTT | TYPE 16 | EC50 | 0.04 µg/mL |
| CSc1nsc(-c2ccc(OCCCOc3ccc([N+](=O)[O-])cc3)cc2)c1C#N | HELA-OHIO | cytopathic effect | Serotype 41 (group B) | EC50 | >1 µM |
| CCOC(=O)/C=C/[C@H](C[C@@H]1CCNC1=O)NC(=O)[C@H](Cc1ccccc1)NC(=O)[C@H](CC(C)C)NC(=O)COc1ccccc1 | H1-HELA | XTT | Serotype 14 | EC50 | 0.1 µM |
| CCO/N=C/c1ccc(OCCCCN2CCN(c3ccc(C)nn3)CC2)cc1 | KB | cytopathic effect / visual reading | TYPE 1A | EC50 | 0.04 µg/mL |
| COc1ccc(-c2cc(N3CCCC3)no2)c(O)c1 | HeLa | cytopathic effect | Serotype 45 (group A) | EC50 | >384 µM |
| CCOC(=O)c1ccc(OCCC2CCN(c3ccc(C)nn3)CC2)cc1 | HeLa | cytopathic effect | Serotype 64 | EC50 | <0.1 µg/mL |
| COc1c(-c2ccc(C3=NCCO3)cc2)oc2ccc(Cl)cc2c1=O | OHIO HELA | plaque count | TYPE 1B | EC50 | 4.47 µM |
| Cc1c(-c2ccccc2)n(-c2cccc(F)c2)c2ccc(C(C)C)cc2c1=O | HELA-OHIO | cytopathic effect | 41/56110 | EC50 | 0.034 µg/mL |
| O=C1CC(CO)=NN1c1ccccc1 | WI-38 | cytopathic effect | Serotype 13 | EC50 | 1.8 µM |
| CCc1cc(CCCOc2c(C)cc(-c3nnc(C)o3)cc2C)on1 | HeLa | plaque count | serotype 2 1A 1B 6 14 21 22 15 25 30 50 67 89 86 41 | EC50 | 0.042 µg/mL |
| CCCO/N=C/c1ccc(OCCCc2cc(C)no2)cc1 | MRC-5 | cytopathic effect / visual reading | TYPE 2 | EC50 | 0.6 µg/mL |
| CCOc1cc(OC)ccc1-c1cc(N(CC)CC)no1 | HeLa | cytopathic effect | Serotype 9 (group B) | EC50 | 15.5 µM |
| Cc1cc(C(=O)N[C@H](C(=O)C[C@@H](Cc2ccc(F)cc2)C(=O)N[C@H](/C=C2\CCOC2=O)C[C@@H]2CCNC2=O)C(C)C)no1 | H1-HELA | XTT | Serotype 14 | EC50 | 0.1 µM |
| Nc1nc2c(ccn2[C@@H]2C[C@H](CO)[C@@H](O)[C@H]2O)c(=O)[nH]1 |  |  | TYPE 31 | MIC | >100 µg/mL |
| CCOC(=O)/C=C/[C@H](CCC(N)=O)NC(=O)NC(CC(C)C)C(=O)OCC | H1-HELA | XTT | Serotype 14 | EC50 | 19.6 µM |
| CCN(CC)c1cc(-c2ccc(OC)cc2OC)on1 | HeLa | cytopathic effect | Serotype 89 (group B) | EC50 | 17.2 µM |
| CCOC(=O)/C=C/[C@H](C[C@@H]1CCNC1=O)NC(=O)[C@H](Cc1ccc(F)cc1)NC(=O)[C@@H](NC(=O)c1cc(C)on1)C(C)(C)C | H1-HELA | XTT | Serotype 16 | EC50 | 0.04 µM |
| O=C(O)c1ccc(/C=C/C(=O)c2cc(Cl)ccc2O)cc1 | OHIO HELA | plaque count | TYPE 1B | EC50 | >25 µM |
| COC(=O)c1cc(CCCOc2c(C)cc(-c3noc(C)n3)cc2C)on1 | HeLa | cytopathic effect | Serotype 1B | EC50 | 0.009 µg/mL |
| CCOc1ccc(-c2cc(N(CC)CC)no2)c(O)c1 | HeLa | cytopathic effect | Serotype 2 | EC50 | >362 µM |
| CCOC(=O)/C=C/[C@H](CCC(N)=O)NC(=O)OC(C)(C)C | HeLa | plaque count | TYPE 14 | EC50 | >10 µg/mL |
| CCO/N=C/c1ccc(OCCC2CCN(c3ccc(C)nn3)CC2)cc1O | MRC-5 | cytopathic effect / visual reading | TYPE 14 | EC50 | 0.0072 µg/mL |
| COc1ccc(C(=O)CCCCOc2ccc(C#N)cc2)cc1 | HeLa | cytopathic effect | Serotype 2 | EC50 | >253 µM |
| CSc1nsc(-c2ccc(OCCOc3ccc(C#N)cc3)cc2)c1C#N | HELA-OHIO | cytopathic effect | Serotype 89 (group B) | EC50 | >2 µM |
| N=C(N)c1ccc2c(c1)C=C(c1ccccc1)CO2 | HeLa | cytopathic effect | Serotype 1B | EC50 | >40 µM |
| CON[C@H](C(=O)N[C@@H](CC(C)C)C(=O)N[C@@H](Cc1ccccc1)C(=O)C(=O)/C=C/[C@H](CCC(N)=O)NC(=O)OCc1ccccc1)C(C)C | HeLa | plaque count | TYPE 14 | EC50 | 0.93 µg/mL |
| CCOC(=O)c1ccc(OCCCCC(=O)c2ccc(OC)cc2)cc1 | HeLa | cytopathic effect | Serotype 2 | EC50 | 10.1 µM |
| CS(=O)(=O)CCCN1C(=O)c2ccccc2C(C(=O)c2ccccc2)C1=O | HeLa | plaque count | Serotype 14 | EC50 | 27.3 µM |
| O=c1c(Cc2ccccc2)coc2ccccc12 | HeLa | plaque count | TYPE 1B | EC50 | 4.64 µM |
| CCOC(=O)c1ccc(OCCCCCCc2cc(C)no2)cc1 | HELA-OHIO | plaque count | TYPE 2 | EC50 | 0.01 µg/mL |
| Cc1nc(-c2cc(C)c(OCCCc3cc(C4CC4)no3)c(C)c2)no1 | HeLa | cytopathic effect | Serotype 2 | EC50 | 0.009 µg/mL |
| Cc1cc(CCCCCOc2c(Cl)cc(C3=NCCO3)cc2Cl)on1 |  |  | serotype 1A 1B 2 6 14 15 21 22 25 29 30 41 42 45 59 63 67 70 72 86 89 | MIC80 | 2.32 µM |
| CON[C@@H](Cc1ccccc1)C(=O)C(=O)/C=C/[C@H](CCS(C)(=O)=O)NC(=O)OCc1ccccc1 | HeLa | plaque count | TYPE 14 | EC50 | >10 µg/mL |
| Cc1ccc(C(=O)CCCCOc2ccc(C#N)cc2)cc1 | HeLa | cytopathic effect | Serotype 2 | EC50 | >269 µM |
| C=CCO/N=C/c1ccc(OCCC2CCN(c3ccc(C)nn3)CC2)c(C)c1 | KB | cytopathic effect / visual reading | TYPE 1A | EC50 | <0.003 µg/mL |
| COc1ccc(C(=O)CCCCOc2c(Cl)cc(C3=NCCO3)cc2Cl)cc1 | HeLa | cytopathic effect | Serotype 14 | EC50 | >237 µM |
| CCOC(=O)/C=C/[C@H](CCC(N)=O)NC(=O)[C@H](Cc1ccccc1)NC(=O)OC(C)(C)C | HeLa | plaque count | TYPE 14 | EC50 | >10 µg/mL |
| CCn1c2c(c(=O)c3cc(C(C)C)ccc31)C(=NOC)c1ccccc1-2 | HELA-OHIO | cytopathic effect | TYPE 1A/E28 | EC50 | >10 µg/mL |

The last 6 rows once more:

| compound | cells | method | strain | endpoint | value |
|---|---|---|---|---|---|
| CON[C@@H](Cc1ccccc1)C(=O)C(=O)/C=C/[C@H](CCS(C)(=O)=O)NC(=O)OCc1ccccc1 | HeLa | plaque count | TYPE 14 | EC50 | >10 µg/mL |
| Cc1ccc(C(=O)CCCCOc2ccc(C#N)cc2)cc1 | HeLa | cytopathic effect | Serotype 2 | EC50 | >269 µM |
| C=CCO/N=C/c1ccc(OCCC2CCN(c3ccc(C)nn3)CC2)c(C)c1 | KB | cytopathic effect / visual reading | TYPE 1A | EC50 | <0.003 µg/mL |
| COc1ccc(C(=O)CCCCOc2c(Cl)cc(C3=NCCO3)cc2Cl)cc1 | HeLa | cytopathic effect | Serotype 14 | EC50 | >237 µM |
| CCOC(=O)/C=C/[C@H](CCC(N)=O)NC(=O)[C@H](Cc1ccccc1)NC(=O)OC(C)(C)C | HeLa | plaque count | TYPE 14 | EC50 | >10 µg/mL |
| CCn1c2c(c(=O)c3cc(C(C)C)ccc31)C(=NOC)c1ccccc1-2 | HELA-OHIO | cytopathic effect | TYPE 1A/E28 | EC50 | >10 µg/mL |